Pooled drug test results. Numbers come from NIAID ChemDB, via PubChem.

Shared fields: tests in culture; species: Mycobacterium tuberculosis

Blank or dashed fields: not listed here. Percent inhibition refers to the dose given; in toxicity tests it is the harm to the cells. Neighbouring rows are from separate reports. ECn is the concentration giving n% inhibition of infection, replication or growth. MIC bound: limit read from a one-dose screen. MIC50, MIC90 and the like: level of inhibition, or share of isolates inhibited. Two numbers with a dash give a range or band.

compound,method,strain or isolate,dose,endpoint,value
CCOC(=O)c1c(C)c(-c2ccccc2)n(CC(=O)N/N=C/c2cn(C(C)=O)c3ccccc23)c1C,BACTEC,H37Rv,-,EC50,>6.25 µg/mL
O=C(O)c1cn(C2CC2)c2cc(N3CCN(Cc4ccc5c(c4)OCO5)CC3)c(F)cc2c1=O,-,ATCC35801,-,MIC,0.19 µM
Cc1cccn2c(=O)c3cc(C(=O)NCc4ccco4)c(=N)n(CCCO)c3nc12,-,H37Rv (ATCC 27294),-,EC50,45 µg/mL
CC1COc2c(N3CCN(C)CC3)c(F)cc3c(=O)c(C(=O)O)cn1c23,-,5 strains,-,MIC,≥1.25 µg/mL
O=C1Nc2ccccc2[C@]12N1CSC[C@H]1[C@H](c1cccs1)[C@]21Cc2ccccc2C1=O,agar,H37Rv,-,MIC99,56.2 µM
COC(=O)C1=C(C)/C(=N/N)CC1,BACTEC,H37Rv,-,MIC bound,>12.5 µg/mL
CCOC(=O)CC(NCCCCNC(CC(=O)OCC)[C@H]1O[C@@H]2CC(C)(C)C[C@@H]2[C@H]2CC(C)(C)C[C@H]21)[C@H]1O[C@@H]2CC(C)(C)C[C@@H]2[C@H]2CC(C)(C)C[C@H]21,-,H37Rv,-,MIC,>25 µg/mL
COC(=O)C1(C)CCCC2(C)c3cc(O)c(C(C)C)cc3CCC12,BACTEC,H37Rv,12.5 µg/mL,inhibition,57%
CC1(C)O[C@H]2OC([C@H](CCO)NCCCCCCCCN[C@@H](CCO)C3O[C@@H]4OC(C)(C)O[C@@H]4[C@H]3OCc3ccccc3)[C@H](OCc3ccccc3)[C@H]2O1,-,H37Rv,-,MIC,>25 µg/mL
Cc1ccc(S(=O)(=O)Nn2c(S)c(C#N)c(-c3ccc([N+](=O)[O-])cc3)c(C#N)c2=O)cc1,resazurin,H37Rv,6.25 µg/mL,inhibition,-7%
CC(C)=CCc1cc(/C=C/C(=O)c2ccc(O)c(CC=C(C)C)c2O)ccc1O,resazurin,MTCS2,-,MIC,9.76 µg/mL
CO[C@H]1/C=C/O[C@@]2(C)Oc3c(C)c(O)c4c(O)c(c5c(c4c3C2=O)N[C@]2(CCCN(C)CC2)N=5)=NC(=O)/C(C)=C\C=C\[C@H](C)[C@H](O)[C@@H](C)[C@@H](O)[C@@H](C)[C@H](OC(C)=O)[C@@H]1C,GFP,-,-,MIC90,10 µg/mL
O=C(CCl)c1ccc(Cc2ccccc2)cc1,-,H37Rv,-,MIC,25 µg/mL
CC(C)(C)NC(=O)C1c2ccccc2CCN1c1cc2c(cc1[N+](=O)[O-])c(=O)c(C(=O)O)cn2C(C)(C)C,-,ATCC35801,-,MIC,6.34 µM
CC1(C)OC(=O)C(=Cc2ccc([N+](=O)[O-])s2)C(=O)O1,resazurin,H37Rv,6.25 µg/mL,inhibition,99%
CCN(CC)C(=S)C(N)=S,-,-,-,MIC,250 µM
O=C(c1ccc(Oc2ccc(Cl)cc2)cc1)C(Cl)Cl,-,H37Rv,-,MIC,6.25 µg/mL
CO[C@H]1/C=C/O[C@@]2(C)Oc3c(C)c(O)c4c(O)c(c5c(c4c3C2=O)NC2(CCN(CC(C)C)CC2)N=5)=NC(=O)/C(C)=C\C=C\[C@H](C)[C@H](O)[C@@H](C)[C@@H](O)[C@@H](C)[C@H](OC(C)=O)[C@@H]1C,-,33 (rifampicin-resistant),-,MIC,>2 µg/mL
CCOC(=O)c1cc(-c2ccccc2)n(CC(=O)NN)c1C,BACTEC,H37Rv,-,EC50,>6.25 µg/mL
C/C(CO)=N\Nc1nc2ccccc2s1,resazurin,ATCC 27294,-,MIC,1.6 µg/mL
CC1(C)C[C@H]2[C@@H](C1)[C@@H](C(CCO)NCCCCCCCCCCNC(CCO)[C@H]1O[C@@H]3CC(C)(C)C[C@@H]3[C@H]3CC(C)(C)C[C@H]31)O[C@@H]1CC(C)(C)C[C@H]21,-,H37Rv,-,MIC,>25 µg/mL
O=C1Nc2ccccc2N=NN1CCCl,BACTEC,H37Rv,12.5 µg/mL,inhibition,0%
CCOC(=O)C[C@H](NCCCCCCCCCN[C@@H](CC(=O)OCC)[C@H]1O[C@@H]2CC(C)(C)C[C@@H]2[C@H]2CC(C)(C)C[C@H]21)[C@H]1O[C@@H]2CC(C)(C)C[C@@H]2[C@H]2CC(C)(C)C[C@H]21,-,H37Rv,-,MIC,25 µg/mL
Cc1ccc(-c2n[nH]c(=O)n2-n2c(C)ccc2C)cc1,-,V.C,-,MIC,10.33 µg/mL
Cc1ccc([C@H]2[C@@H]3CSCN3[C@@]3(C(=O)Nc4ccccc43)[C@@]23Cc2ccccc2C3=O)cc1,agar,H37Rv,-,MIC99,55.2 µM
Cc1[nH]c2ccc(C(=O)NN)cc2c1CC(=O)NN,BACTEC,H37Rv,-,MIC bound,>12.5 µg/mL
CO[C@H]1/C=C/O[C@@]2(C)Oc3c(C)c(O)c4c(=O)c(c5oc6cc(N7CCN(CC(C)C)CC7)cc(=O)c6nc5c4c3=C2O)NC(=O)/C(C)=C\C=C\[C@H](C)[C@H](O)[C@@H](C)[C@@H](O)[C@@H](C)[C@H](OC(C)=O)[C@@H]1C,-,2225 (rifampicin-resistant),-,MIC,4 µg/mL
O=C1Nc2ccc([N+](=O)[O-])cc2[C@]12N1CSC[C@H]1[C@H](c1ccc([N+](=O)[O-])cc1)[C@]21Cc2ccccc2C1=O,agar,H37Rv,-,MIC99,5.9 µM
O=C(c1ccc(-c2ccc(C(=O)C(Cl)Cl)cc2)cc1)C(Cl)Cl,-,H37Rv,-,MIC,1.56 µg/mL
NC(=S)C(=S)N1CCCCC1,-,-,-,MIC,125 µM
O=C1Nc2ccccc2[C@]12N1CSC[C@H]1[C@H](c1ccc(Br)cc1)[C@]21Cc2ccccc2C1=O,agar,H37Rv,-,MIC99,24.2 µM
NC(=O)c1cnccn1,-,Isolate 97-826,-,MIC,300 µg/mL
CCOC(=O)c1cc(-c2ccc(OC)cc2)n(CC(=O)N/N=C/c2ccc([N+](=O)[O-])o2)c1C,BACTEC,H37Rv,6.25 µg/mL,inhibition,45%
CC(C)(C)NC(=O)C1c2ccccc2CCN1c1cc2c(cc1[N+](=O)[O-])c(=O)c(C(=O)O)cn2-c1ccc(F)cc1F,-,ATCC35801,-,MIC,11.37 µM
CO[C@H]1/C=C/O[C@@]2(C)Oc3c(C)c(O)c4c(O)c(c5c(c4c3C2=O)NC2(N=5)C3CC4C[C@H]2CN(C4)C3)=NC(=O)/C(C)=C\C=C\[C@H](C)[C@H](O)[C@@H](C)[C@@H](O)[C@@H](C)[C@H](OC(C)=O)[C@@H]1C,GFP,-,-,MIC90,10 µg/mL
CC[C@H](C)c1occ2c(O)c(C(=O)O)c(=O)cc-2c1C,BACTEC,H37Rv,12.5 µg/mL,inhibition,7%
O=C(c1ccc(S(=O)(=O)c2ccccc2)cc1)C(Cl)Cl,-,H37Rv,-,MIC,12.5 µg/mL
COC(=O)C1c2cc3c(c(O)c2C(O)CC1(C)O)C(=O)c1c(O)cc2c(c1C3=O)OC1OC2(C)C(O)C(N(C)C)C1O,BACTEC,H37Rv,12.8 µg/mL,inhibition,8%
CC(=O)c1c(C)[nH]c(C(=O)NN)c1C,BACTEC,H37Rv,-,EC50,>6.25 µg/mL
COc1ccc2n[se]nc2c1,BACTEC,H37Rv,-,MIC bound,>12.5 µg/mL
O=C(O)c1cn(C2CC2)c2cc(N3CCN(C(c4ccccc4)c4ccc(Cl)cc4)CC3)c(F)cc2c1=O,-,ATCC35801,-,MIC,0.17 µM
CCOC(=O)CC(NCCCCCCCNC(CC(=O)OCC)[C@H]1O[C@@H]2CC(C)(C)C[C@@H]2[C@H]2CC(C)(C)C[C@H]21)[C@H]1O[C@@H]2CC(C)(C)C[C@@H]2[C@H]2CC(C)(C)C[C@H]21,-,H37Rv,-,MIC,>25 µg/mL
CCCCC1=NCCc2c1cc1c([nH]c3ccccc31)c2C,resazurin,H37Rv,6.25 µg/mL,inhibition,97%
CCOC(=O)c1cc(-c2ccccc2)n(CC(=O)N/N=C/c2ccccc2O)c1C,BACTEC,H37Rv,6.25 µg/mL,inhibition,8%
C/C(=N\NC(=O)CCSCCC(=O)N/N=C(\C)c1ccccc1)c1ccccc1,BACTEC,H37Rv,-,MIC bound,>12.5 µg/mL
O=C1Nc2ccc(Cl)cc2[C@]12N1CSC[C@H]1[C@H](c1cccc(Cl)c1Cl)[C@]21Cc2ccccc2C1=O,agar,H37Rv,-,MIC99,5.8 µM
CCCN1C2CCC1CC1(C2)N=C2C(=C3NC(=O)/C(C)=C\C=C\[C@H](C)[C@H](O)[C@@H](C)[C@@H](O)[C@@H](C)[C@H](OC(C)=O)[C@H](C)[C@@H](OC)/C=C/O[C@@]4(C)OC5=C(C)C(O)C(C3=O)C2=C5C4=O)N1,GFP,-,-,MIC90,10 µg/mL
O=C(c1ccc(Cc2ccc(C(=O)C(Cl)Cl)cc2)cc1)C(Cl)Cl,-,H37Rv,-,MIC,12.5 µg/mL
O=C1Nc2ccc(Cl)cc2[C@]12N1CSC[C@H]1[C@H](c1ccc(Br)cc1)[C@]21Cc2ccccc2C1=O,agar,H37Rv,-,MIC99,11.3 µM
NCCCC[C@H](NC(=O)[C@H](Cc1cnc[nH]1)NC(=O)CN)C(=O)O,BACTEC,H37Rv,-,MIC bound,>12.5 µg/mL
CC1(C)C[C@H]2[C@@H](C1)[C@@H](C(CCO)NCCCCCCCCCNC(CCO)[C@H]1O[C@@H]3CC(C)(C)C[C@@H]3[C@H]3CC(C)(C)C[C@H]31)O[C@@H]1CC(C)(C)C[C@H]21,-,H37Rv,-,MIC,25 µg/mL
CCOC(=O)Nc1cc2c(c(N)n1)N=C(c1ccccc1)CO2,resazurin,H37Rv,6.25 µg/mL,inhibition,39%
O=C1Nc2ccc([N+](=O)[O-])cc2[C@]12N1CSC[C@H]1[C@H](c1ccccc1Cl)[C@]21Cc2ccccc2C1=O,agar,H37Rv,-,MIC99,12.1 µM
Cc1c(CN2CCSCC2)cc(-c2cccc3ccccc23)n1-c1ccc(F)cc1,-,103471,-,MIC,>16 µg/mL
Cc1cc(C)nc(NS(=O)(=O)c2ccc(N=NC3=C(O)C(c4ccccc4)N(c4ccccc4)C3=O)cc2)n1,BACTEC,H37Rv,-,MIC bound,>12.5 µg/mL
C=C(C)CC[C@H]1CN(c2ccn(N3CCOCC3)c2)C(=O)O1,-,ATCC 35820 (streptomycin-resistant),-,MIC50,>100 µM
O=C1CSC(=NCCN=C2NC(=O)CS2)N1,resazurin,H37Rv,-,MIC bound,>6.25 µg/mL
O=C(CCl)c1ccc(Sc2ccccc2)cc1,-,H37Rv,-,MIC,25 µg/mL
CC(=O)Nc1ccccc1C(=O)C(=O)Nc1ccccc1C(=O)NN,BACTEC,H37Rv,12.5 µg/mL,inhibition,-2%
O=C(c1ccc(-c2ccccc2)cc1)C(Cl)Cl,-,H37Rv,-,MIC,3.125 µg/mL
NNC(=O)c1ccncc1,-,-,-,MIC,7 µM
CCOC(=O)c1c(C)[nH]c(C(=O)N/N=C/c2ccc([N+](=O)[O-])o2)c1C,BACTEC,H37Rv,6.25 µg/mL,inhibition,40%
COc1ccc(/C(=N\NC(=O)C(N)=O)C(c2ccc(OC)cc2)C2(O)C(=O)Nc3c(Cl)cccc32)cc1,BACTEC,H37Rv,12.5 µg/mL,inhibition,92%
CC(C)CCOc1ccc(NC(=S)NC2OC(CO)[C@H](O)[C@H]2O)cc1,resazurin,H37Rv,-,MIC,6.25–12.5 µg/mL
CCOC(=O)C[C@H](NCCCCCCCCCCN[C@@H](CC(=O)OCC)C1O[C@@H]2OC(C)(C)O[C@@H]2[C@H]1OCc1ccccc1)C1O[C@@H]2OC(C)(C)O[C@@H]2[C@H]1OCc1ccccc1,-,H37Rv,-,MIC,>50 µg/mL
O=C(O)c1csc(C(=O)O)c1,BACTEC,H37Rv,-,MIC bound,>12.5 µg/mL
CCOC(=O)C[C@H](NCCCCCCCCCCCCN[C@@H](CC(=O)OCC)C1O[C@@H]2OC(C)(C)O[C@@H]2[C@H]1OCc1ccccc1)C1O[C@@H]2OC(C)(C)O[C@@H]2[C@H]1OCc1ccccc1,-,H37Rv,-,MIC,>50 µg/mL
O=C1C2=C(Nc3cc(Cl)ccc3N2)OC1c1ccc2c(c1)OCO2,BACTEC,H37Rv,12.5 µg/mL,inhibition,-41%
Cc1cc(C)c(C(=O)N/N=C/c2ccc([N+](=O)[O-])o2)[nH]1,BACTEC,H37Rv,-,EC50,>6.25 µg/mL
S=C1N(c2ccc(Cl)cc2)C2=C(N=Nc3ccccc3)C(=Nc3ccccc3S2)N1c1ccccn1,BACTEC,H37Rv,12.5 µg/mL,inhibition,100%
CC[C@H]1OC(=O)[C@H](C)[C@@H](O[C@H]2C[C@@](C)(OC)[C@@H](OC(C)=O)[C@H](C)O2)[C@H](C)[C@@H](O[C@@H]2O[C@H](C)C[C@H](N(C)C)[C@H]2O)C(C)(O)C[C@@H](C)/C(=N\OCCCC2CCCCC2)[C@H](C)[C@@H](O)[C@]1(C)O,-,2,-,MIC,3.13 µg/mL

For reference, 6 entries again:

compound | method | strain or isolate | dose | endpoint | value
O=C1Nc2ccc(Cl)cc2[C@]12N1CSC[C@H]1[C@H](c1cccc(Cl)c1Cl)[C@]21Cc2ccccc2C1=O | agar | H37Rv | - | MIC99 | 5.8 µM
O=C1Nc2ccccc2N=NN1CCCl | BACTEC | H37Rv | 12.5 µg/mL | inhibition | 0%
CO[C@H]1/C=C/O[C@@]2(C)Oc3c(C)c(O)c4c(O)c(c5c(c4c3C2=O)NC2(CCN(CC(C)C)CC2)N=5)=NC(=O)/C(C)=C\C=C\[C@H](C)[C@H](O)[C@@H](C)[C@@H](O)[C@@H](C)[C@H](OC(C)=O)[C@@H]1C | - | 33 (rifampicin-resistant) | - | MIC | >2 µg/mL
NC(=S)C(=S)N1CCCCC1 | - | - | - | MIC | 125 µM
Cc1ccc(S(=O)(=O)Nn2c(S)c(C#N)c(-c3ccc([N+](=O)[O-])cc3)c(C#N)c2=O)cc1 | resazurin | H37Rv | 6.25 µg/mL | inhibition | -7%
C/C(CO)=N\Nc1nc2ccccc2s1 | resazurin | ATCC 27294 | - | MIC | 1.6 µg/mL